PubChem BioAssay AID504811 – Drosophila RNAi Screening Center | 2011

Purpose: 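Drosophila host factors required for Listeria to grow inside cells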 (primary screen)
Cell system: Drosophila SL2 cells
Reagent: long dsRNA against Drosophila genes
Challenge: infection with GFP-expressing Listeria monocytogenes; dose and duration not given
Read-out: 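Cells infected with GFP-tagged Listeria were imaged, and bacterial fluorescence was judged visually against control wells as reduced, increased or clustered in dots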
Hit rule: 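a dsRNA counts as a hit when bacterial fluorescence is plainly weaker, stronger or dotted in clusters relative to control wells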
Meaning of the calls: active = hit; inactive = not a hit
The reagents shown are a selection, not the whole library. 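Only hits are listed, without non-hit dsRNAs or numeric scores; replicate 2 has entries for just two rows.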 Not given: the amount of reagent, the time to read-out.

After knock-down of RpL37A (GeneID 44783) [DRSC02899] the results were infection phenotype, replicate 1 = stronger bacterial GFP per infected cell than controls; active.
Against Ced-12 (GeneID 34633) [DRSC02840], the values are infection phenotype, replicate 1 = less bacterial GFP than control wells (fewer infected cells or weaker signal per cell); active.
For puc (GeneID 40958) [DRSC17034], the entry reads infection phenotype, replicate 1 = less bacterial GFP than control wells (fewer infected cells or weaker signal per cell); active.
For Spindly (GeneID 33578) [DRSC00430], the values are infection phenotype, replicate 1 = less bacterial GFP than control wells (fewer infected cells or weaker signal per cell); active.
After knock-down of Arpc1 (GeneID 34793) [DRSC03438], the record shows infection phenotype, replicate 1 = less bacterial GFP than control wells (fewer infected cells or weaker signal per cell); active.
Knock-down of RpL9 (GeneID 34526) [DRSC03418] resulted in: infection phenotype, replicate 1 = stronger bacterial GFP per infected cell than controls; active.
With knock-down of Cdc27 (GeneID 38798) [DRSC11112] the results were infection phenotype, replicate 1 = less bacterial GFP than control wells (fewer infected cells or weaker signal per cell); active.
After knock-down of Rpt2 (GeneID 42828) [DRSC16799] the results were infection phenotype, replicate 1 = less bacterial GFP than control wells (fewer infected cells or weaker signal per cell); active.
Against Hrb27C (GeneID 33968) [DRSC03347], the entry reads infection phenotype, replicate 1 = less bacterial GFP than control wells (fewer infected cells or weaker signal per cell); active.
